Compound potency records, mixed from different reports. Data source: NIAID ChemDB in PubChem.

All rows: tests in culture; species: HIV-1

ECn is the concentration giving n% inhibition of infection, replication or growth. Blank or dashed fields: not listed here. Neighbouring rows are from separate reports.

structure | method | cell line | changes | setting | strain or isolate | read-out | value
Cc1c(O)cccc1C(=O)N[C@@H](CSc1ccccc1)[C@H](O)CN1C[C@H]2CCCC[C@H]2C[C@H]1C(=O)NC(C)(C)C | cytopathic effect / XTT | CEM |  | 15% FBS | IIIB | EC50 | 0.019 µM
CC(=O)N1CCC(C(=O)N(CCCN2CCC(Cc3ccc(C(N)=O)cc3)CC2)c2ccc(C)c(Cl)c2)CC1 | luciferase | U87 (CD4+ CCR5+) + U87 |  |  | R5 subtype A_1 recombinant | EC50 | 0.0029 µM
Cc1cn([C@H]2C[C@H](N=[N+]=[N-])[C@@H](CO)O2)c(=O)[nH]c1=O | cytopathic effect / XTT | CEM + CEM-SS | RT-D67N K70R Y181C T215Y K219Q |  | 4XAZT/Y181C (RT D67N K70R Y181C T215Y K219Q) | EC50 | 0.1 µM
Nc1ncnc2c1ncn2CCOCP(=O)(OCCSSCCO)OCCSSCCO | RT activity | CEM + CEM-SS |  |  | LAI | EC50 | 3.1 µM
Cc1ccccc1CNC(=O)[C@H]1N(C(=O)[C@@H](O)[C@H](Cc2ccccc2)NC(=O)c2cccc(O)c2C)CSC1(C)C | RT activity | PBMC | PR-L10I M46I I54V L63P A71V V82A L90M |  | 1026-40 PI-resistant | EC50 | 0.103 µM
Fc1cccc(F)c1C1SCc2nc3ccccc3n21 | cytopathic effect | MT-4 |  |  | IIIB | EC50 | 0.6 µM
[N-]=[N+]=N[C@@H]1C[C@@H](n2cnc3c(N)nc(Cl)nc32)O[C@H]1CO | RT activity | CEM + CEM-SS |  |  |  | EC50 | >10 µM
CC[C@@H](C)[C@H](C(=O)O)N1C[C@H](CN2CCC(c3cc(Cc4ccc(OC(F)F)cc4)nn3CC)CC2)[C@@H](c2cccc(F)c2)C1 | β-galactosidase | HeLa |  | 50% human serum | BaL | EC50 | <0.011 µM
O=C(O)C(=O)CC(=O)c1cccn1Cc1ccccc1 | p24 | MT-4 |  |  | IIIB | EC95 | 32 µM
COc1ccc(C[C@H](NC(=O)c2cccc(O)c2C)[C@H](O)C(=O)N2CSC(C)(C)[C@H]2C(=O)NCc2c(C)cccc2C)cc1 | cytopathic effect / XTT | CEM |  | 50% human serum | IIIB | EC50 | 0.014 µM
COc1cc([C@@H]2c3cc4c(cc3[C@@H](O[C@@H]3O[C@@H]5CO[C@@H](C)O[C@H]5[C@H](O)[C@H]3O)[C@H]3COC(=O)[C@H]23)OCO4)cc(OC)c1O | p24 | H9 |  |  | IIIB | EC50 | 0.03 µg/mL
CC(C)Nc1cccnc1N1CCN(C(=O)c2cc3cc(NS(C)(=O)=O)ccc3[nH]2)CC1 | p24 | H9 |  |  | IIIB | EC90 | 0.05 µM
COc1cc2c(cc1OC)[C@@H](Nc1ccc([N+](=O)[O-])cc1)[C@H]1COC(=O)[C@@H]1[C@@H]2c1cc(OC)c(OC)c(OC)c1 | p24 | H9 |  |  | IIIB | EC50 | 2.45 µg/mL
Nc1nc2c(ncn2CC(O)CCO)c(=O)[nH]1 | cytopathic effect / trypan blue | ATH8 |  |  | IIIB | EC50 | >100 µM
Cc1cc(C#Cc2cccc(N)c2)cc(C)c1Oc1ccnc(NC2CCN(Cc3ccc(S(N)(=O)=O)cc3)CC2)n1 | MTT | MT-4 | E138K |  | IIIB | EC50 | 0.025 µM
CCc1c(Sc2ccccn2)n(COCc2ccccc2)c(=O)[nH]c1=O | cytopathic effect | MT-2 |  |  | Nevirapine-resistant | EC50 | 0.9 ± 0.001 µM
CC1(C)CC(=O)C2=C(C1)NC(SSC1=C(C#N)C(c3ccc(F)cc3)C3=C(CC(C)(C)CC3=O)N1)=C(C#N)C2c1ccc(F)cc1 | cytopathic effect / XTT | CEM + CEM-SS |  |  | RF | EC50 | 3.4 µM
CC1CNC(=O)c2ccccc2SSc2ccccc2C(=O)N1 | ELISA | H9 |  |  | IIIB | EC50 | 0.05 µg/mL
COCCCCCCCCCCCC(=O)O | RT activity | H9 |  |  |  | EC50 | <10 µM
CCn1nc(Cc2cc(F)cc(F)c2)cc1C1CCN(C[C@H]2CN([C@@H](C(=O)O)C3CCCCC3)C[C@@H]2c2cccc(F)c2)CC1 | β-galactosidase | HeLa |  |  | BaL | EC90 | <0.00014 µM
Nc1nc(Cl)nc2c1ncn2[C@H]1O[C@@H](CO)[C@@H](O)[C@@H]1O | cytopathic effect / MTT | MT-4 |  |  |  | EC50 | >10 µM
Cc1cc(C(=O)O)c(C)cc1SSc1cc(C)c(C(=O)O)cc1C | cytopathic effect / XTT | CEM + CEM-SS |  |  | RF | EC50 | 28.4 µM
CC[C@H](C)[C@H](C(=O)O)N1C[C@H](CN2CCC(c3cc(Cc4ccc(O)cc4)nn3CC)CC2)[C@@H](c2cccc(F)c2)C1 | β-galactosidase | HeLa |  | 50% human serum | BaL | EC90 | 0.011 µM
C/C=C/CSc1cc(NC(=S)c2ccsc2C)ccc1Cl | cytopathic effect / XTT | CEM + CEM-SS | RT-Y188C |  | NL4-3 (RT Y188C) | EC50 | 0.6 µM
CNc1ccc(Cl)cc1S(=O)(=O)c1ccccc1[N+](=O)[O-] | XTT | CEM + CEM-SS |  |  | RF | EC50 | 0.3 µM
COS(=O)CCOC(=O)c1ccccc1SSc1ccccc1C(=O)OCCS(=O)OC | cytopathic effect / XTT | CEM + CEM-SS |  |  | RF | EC50 | 96.2 µM
CC[C@@H](C)[C@H](C(=O)O)N1C[C@H](CN2CCC(c3cc(Cc4cccc(CN)c4)nn3CC)CC2)[C@@H](c2cccc(F)c2)C1 | β-galactosidase | HeLa |  | 50% human serum | BaL | EC50 | <0.033 µM
CO[P@](=O)(c1cc(C)cc(/C=C/C#N)c1)c1c(C(N)=O)[nH]c2ccc(Cl)cc12 |  | U-937 |  |  | IIIB | EC50 | 0.0005 µM
COc1cccc(C[C@H](NC(=O)c2cccc(O)c2C)[C@H](O)C(=O)N2CSC(C)(C)[C@H]2C(=O)NCc2c(C)cccc2C)c1 | RT activity | PBMC | PR-L10I M46I I54V L63P V82F L90M |  | 1002-60 PI-resistant | EC50 | 0.0045 µM
Cc1cn([C@H]2C[C@H](N=[N+]=[N-])[C@@H](COP(=O)(OCCSC(=O)C(C)(C)O)OCCSC(=O)C(C)(C)O)O2)c(=O)[nH]c1=O | RT activity | CEM + CEM TK- |  |  | LAI | EC50 | 9.2 µM
Cc1cn([C@H]2C=C[C@@H](COP(=O)(SCCOC(=O)C(C)(C)C)SCCOC(=O)C(C)(C)C)O2)c(=O)[nH]c1=O | RT activity | CEM + CEM TK- |  |  | LAI | EC50 | 0.0044 µM
C/C(=C(/CCO)SSCC1CCCO1)N(C=O)Cc1cnc(C)nc1N | p24 | CEM/HIV-1(LAV-1) + CEM |  |  | LAV-1 | EC50 | <50 µM
CC(=O)Nc1cnc(Oc2c(Br)cc(Br)cc2Br)nc1Nc1ccc(C#N)cc1 | MTT | MT-4 |  |  | RES056 | EC50 | >119 µM
Nc1ncnc2c1ncn2CCOCP(=O)(O)O | RT activity | C3 |  |  | LAV | EC90 | 27 µM
CCn1nc(Cc2ccc(O)cc2)cc1C1CCN(C[C@H]2CN([C@@H](C(=O)O)C(C)C)C[C@@H]2c2cccc(F)c2)CC1 | β-galactosidase | HeLa |  | 50% human serum | BaL | EC50 | <0.033 µM
Nc1cc(C(=O)O)ccc1SSc1ccc(C(=O)O)cc1N | cytopathic effect / XTT | CEM + CEM-SS |  |  | RF | EC50 | 68.1 µM
Cc1occc1C(=S)Nc1ccc(Cl)c(/C=N/OC(C)(C)C)c1 | cytopathic effect / XTT | AA5 |  |  | IIIB | EC50 | 1.9 µM
Cc1cc(C#Cc2cccc(N)c2)cc(C)c1Oc1ccnc(Nc2ccc(C#N)cc2)n1 | MTT | MT-4 | Y181C |  | IIIB | EC50 | 0.259 µM
CCn1nc(Cc2ccccc2F)cc1C1CCN(C[C@H]2CN([C@@H](C(=O)O)C(C)C)C[C@@H]2c2cccc(F)c2)CC1 | β-galactosidase | HeLa |  |  | BaL | EC50 | <0.011 µM
Cc1cn([C@H]2CC[C@@H](CO)O2)c(=O)[nH]c1=O | RT activity | CEM + CEM-SS |  |  | LAI | EC50 | 4 µM
CCc1c([Se]c2ccccn2)n(COCc2ccccc2)c(=O)[nH]c1=O | cytopathic effect | MT-2 |  |  | Nevirapine-resistant | EC50 | 1 ± 0.01 µM
CCCCCCCCOCCCCC(=O)O | RT activity | H9 |  |  |  | EC50 | <100 µM
N#Cc1ccc(Nc2nc(Oc3c(Cl)cccc3Cl)ncc2NC(=O)C(F)(F)F)cc1 | MTT | MT-4 |  |  | IIIB | EC50 | 0.141 µM
O=c1[nH]cnc2c1ncn2[C@H]1CC[C@@H](CO)O1 | RT activity | CEM + CEM TK- |  |  | LAI | EC50 | 0.95 µM
CCn1nc(Cc2ccc(OC3CC3)cc2)cc1C1CCN(C[C@H]2CN([C@@H](C(=O)O)C3CCCCC3)C[C@@H]2c2cccc(F)c2)CC1 | β-galactosidase | HeLa |  | 50% human serum | BaL | EC90 | 0.033 µM
O=C1N(Cc2ccc(CO)cc2)[C@H](Cc2ccccc2)[C@H](O)[C@@H](O)[C@@H](Cc2ccccc2)N1Cc1ccc(CO)cc1 | p24 | PBMC |  |  | Clinical isolate P | EC50 | 0.11 µM
Nc1nc2c(ncn2[C@H]2CC[C@@H](CO)O2)c(=O)[nH]1 | cytopathic effect / trypan blue | ATH8 |  |  | IIIB | EC50 | <5 µM
CCSCCCCCCCCCCC(=O)O | RT activity | H9 |  |  |  | EC50 | <10 µM
Nc1nc(N)c2ncn(CCOCP(=O)(O)O)c2n1 | RT activity | C3 |  |  | LAV | EC90 | 3 µM
CC[C@H](C)[C@H](C(=O)O)N1C[C@H](CN2CCC(c3cc(Cc4cccc(CN)c4)nn3CC)CC2)[C@@H](c2cccc(F)c2)C1 | β-galactosidase | HeLa |  | 50% human serum | BaL | EC50 | <0.011 µM
N#Cc1ccc(Nc2nc(Oc3c(Cl)cccc3Cl)ncc2[N+](=O)[O-])cc1 | MTT | MT-4 |  |  | IIIB | EC50 | 3.21 µM
Cc1cn([C@H]2C[C@H](N=[N+]=[N-])[C@@H](CO)O2)c(=O)[nH]c1=O | RT activity | PBMC |  |  | IIIB | EC50 | 0.02 µM
Cc1cc(C)c(Oc2ncc([N+](=O)[O-])c(Nc3ccc(C#N)cc3)n2)c(C)c1 | MTT | MT-4 |  |  | RES056 | EC50 | ≥252 µM
Cc1ccnc2c1NC(=O)c1cccnc1N2C1CC1 | cytopathic effect / XTT | MT-2 |  |  | IIIB | EC50 | 0.1 µM
CC(C)(C)NC(=O)[C@@H]1C[C@@H]2CCCC[C@@H]2CN1C[C@@H](O)[C@H](Cc1ccccc1)NC(=O)[C@H](CC(N)=O)NC(=O)c1ccc2ccccc2n1 | p24 | MT-4 |  |  | NL4-3 | EC50 | <0.025 µM
CC[C@H](C)[C@H](C(=O)O)N1C[C@H](CN2CCC(c3cc(Cc4cccc(OC)c4)nn3CC)CC2)[C@@H](c2cccc(F)c2)C1 | β-galactosidase | HeLa |  |  | BaL | EC90 | <0.00014 µM
COc1cc2c(cc1OC)[C@@H](Nc1ccc(F)cc1)[C@H]1COC(=O)[C@@H]1[C@@H]2c1cc(OC)c(O)c(OC)c1 | p24 | H9 |  |  | IIIB | EC50 | <0.001 µg/mL
COc1ccc(C[C@H](NC(=O)c2cccc(O)c2C)[C@H](O)C(=O)N2CSC(C)(C)[C@H]2C(=O)NCc2ccccc2C)cc1 | RT activity | PBMC | PR-L10I M46I I54V L63P V82F L90M |  | 1002-60 PI-resistant | EC50 | 0.017 µM
CCO/N=C(\c1ccc(Br)cc1)C1CCN(C2(C)CCN(C(=O)c3c(C)cc[n+]([O-])c3C)CC2)CC1 | p24 | PBMC |  |  | 93MW959 R5 CLADE C | EC50 | 0.0011 µM
CC1(C)CC(=O)C2=C(C1)NC(SSC1=C(C#N)C(c3ccc(Br)cc3)C3=C(CC(C)(C)CC3=O)N1)=C(C#N)C2c1ccc(Br)cc1 | cytopathic effect / XTT | CEM + CEM-SS |  |  | RF | EC50 | 21.6 µM
CN=C1CN=C(c2ccc[nH]2)c2cc(Cl)ccc2N1 | cytopathic effect / MTT | CEM |  |  | IIIB | EC50 | 0.058 µg/mL
Cc1cn([C@H]2C[C@H](N=[N+]=[N-])[C@@H](CO)O2)c(=O)[nH]c1=O | cytopathic effect / XTT | CEM + CEM-SS |  |  | MN | EC50 | 0.0005 µM
Cc1ccnc2c1NC(=O)c1cccnc1N2C1CC1 | MTT | MT-4 | L100I |  | IIIB | EC50 | 0.705 µM
CNc1ccc(S(=O)(=O)c2ccccc2[N+](=O)[O-])cc1Cl | XTT | CEM + CEM-SS |  |  | IIIB | EC50 | 0.1 µM
O=C(O)C(=O)CC(=O)c1cccc(Cc2ccccc2)c1 | p24 | MT-4 |  |  | IIIB | EC95 | 0.8 µM
Nc1nc(Cl)nc2c1ncn2[C@@H]1CC[C@H](CO)O1 | cytopathic effect / MTT | MT-4 |  |  |  | EC50 | >10 µM
Nc1ccn(C=C=CCO)c(=O)n1 | cytopathic effect / trypan blue | ATH8 |  |  | IIIB | EC50 | <0.2 µM
Nc1ccn([C@@H]2CO[C@H](CO)S2)c(=O)n1 | p24 | C8166 | RT-M41L |  | RF | EC50 | 4.4 µM
c1ccc(C2OCc3nc4ccccc4n32)cc1 | cytopathic effect | CEM |  |  | IIIB | EC50 | 8.5 µM
Nc1ncnc2c1ncn2[C@H]1CC[C@@H](CO)O1 | RT activity | CEM + CEM-SS |  |  | LAI | EC50 | 0.43 µM
Cc1ccnc2c1NC(=O)c1cccnc1N2C1CC1 | cytopathic effect / XTT | CEM + CEM-SS | RT-D67N K70R T215Y K219Q |  | 4xAZT(RT-D67N K70R T215Y K219Q) | EC50 | 0.02 µM
[N-]=[N+]=N[C@H]1C[C@H](n2ccc(N)nc2=O)O[C@@H]1CO | p24 | MT-2 | RT-D67N K70N T215F K219Q |  | AZT-resistant (RT D67N K70R T215F K219Q) | EC50 | 160.8 µM
Nc1ncnc2c1ncn2C=C=CCCl | cytopathic effect / trypan blue | ATH8 |  |  | IIIB | EC50 | >100 µM
O=C(O)c1cc(O)cc(O)c1N=Nc1ccc(/C=C/c2ccc(N=Nc3c(O)cc(O)cc3C(=O)O)cc2S(=O)(=O)O)c(S(=O)(=O)O)c1 | RT activity | U-937 |  |  | IIIB | EC50 | 5.8 µg/mL
Cc1ccnc2c1NC(=O)c1cccnc1N2C1CC1 | cytopathic effect | MT-2 |  |  | IIIB | EC50 | 0.48 ± 0.32 µM
CC(C)CN(C[C@@H](O)[C@H](Cc1ccccc1)NC(=O)[C@H](CC(N)=O)NC(=O)c1ccc2ccccc2n1)C(=O)NC(C)(C)C | p24 | MT-4 | PR-M46I L63P |  | NL4-3 | EC50 | <0.2 µM
Cc1cccc(C)c1Oc1ccnc(Nc2ccc(C#N)cc2)n1 | MTT | MT-4 | L100I |  | IIIB | EC50 | 0.054 µM